A mixed list of measured activities; the numbers were collected in NIAID ChemDB.

All rows: tests in culture; agent: HIV-1

a–b is a range or a potency band. Neighbouring rows are from separate reports. Blank or dashed fields: not listed here. ECn is the concentration giving n% inhibition of infection, replication or growth.

| structure | endpoint | cell line | changes | read by | strain or isolate | result |
|---|---|---|---|---|---|---|
| CCc1c(Cc2ccccc2)n(COCCCc2ccccc2)c(=O)[nH]c1=O | EC50 | MT-4 | K103R/V179D/P225H | MTT | EFVR | >23 µM |
| Cc1cc(C)cc(Sc2c(C(C)C)c(=O)[nH]c(=O)n2Cc2ccncc2)c1 | EC50 | MT-4 | - | cytopathic effect / MTT | - | 0.002 µg/mL |
| CCc1c(Cc2ccc(C)cc2)n(COCCc2ccccc2)c(=O)[nH]c1=O | EC50 | MT-4 | K103R/V179D/P225H | MTT | EFVR | >60 µM |
| Cc1cc(F)cc(C(=O)c2c(C(C)C)c(=O)[nH]c(=O)n2Cc2ccnc(C)c2)c1 | EC50 | MT-4 | - | cytopathic effect / MTT | - | 0.0024 µg/mL |
| CC(=O)Nc1ccc(F)c2c(C(=O)C(=O)N3CCC(=C(C#N)c4cccnc4)CC3)c[nH]c12 | EC50 | HeLa | - | luciferase / reporter gene | - | <1 µM |
| CCOCn1c(Cc2ccccc2)c(C(C)C)c(=O)[nH]c1=O | EC50 | MT-4 | K103N/Y181C | MTT | A17 | 56 µM |
| Cc1cc(CNC(=O)c2nc3n(c(=O)c2O)CC(C)(C)CC[C@@H]3N(C)C(=O)C(=O)N(C)C)ccc1F | EC50 | HeLa P4-2 | N155H | single cycle | - | 0.014 µM |
| C=C(C)[C@@H]1CC[C@]2(C(=O)NCCCCCCCC(=O)N[C@@H](CC(C)C)[C@@H](O)CC(=O)O)CC[C@]3(C)[C@H](CC[C@@H]4[C@@]5(C)CC[C@H](O)C(C)(C)[C@@H]5CC[C@]43C)[C@@H]12 | EC50 | HeLa P4 + HeLa | GP41-Q39H | syncytia | LAI | <10 µM |
| COc1ncc(OC)c2c(C(=O)C(=O)N3CCC(=C(C#N)c4nc5ccccc5[nH]4)CC3)c[nH]c12 | EC50 | HeLa | - | luciferase | - | <1 µM |
| CCc1cccc2c(C(=O)C(=O)N3CCN(C(=O)c4ccccn4)C[C@H]3C)c[nH]c12 | EC50 | HeLa + HELA CD4+/CCR5 | - | luciferase | - | <10 µM |
| CC(C)=CCOc1cc(NC(=S)c2ccoc2C)ccc1Cl | EC50 | CEM + CEM-SS | - | cytopathic effect / XTT | 4XAZT+Y181C | 0.2 µM |
| Cc1cc(S(N)(=O)=O)ccc1NC(=O)COc1ccc(Cl)cc1C(=O)c1cc(Cl)cc(C#N)c1 | EC50 | HeLa + HELA CD4+ | RT-K103N Y181C | β-galactosidase | HXB2 (RT-K103N Y181C) Recombinant | <0.01 µM |
| COc1cnc(-c2cnccn2)c2[nH]cc(C(=O)C(=O)N3CCC(=C(C#N)c4ccccn4)CC3)c12 | EC50 | HeLa | - | luciferase | - | <1 µM |
| COC(=O)c1cccc2c(C(=O)C(=O)N3CCN(C(=O)c4ccccc4)C(C)C3)c[nH]c12 | EC50 | HeLa + HELA CD4+/CCR5 | - | luciferase | - | <10 µM |
| Cc1cc(S(N)(=O)=O)ccc1NC(=O)COc1ccc(Cl)cc1C(=O)c1cccc(C#N)n1 | EC50 | HeLa + HELA CD4+ | RT-V106I Y181C | β-galactosidase | HXB2 | <0.01 µM |
| Cc1ccc(C)n1-c1ccc(C(=O)O)c(O)c1 | EC90 | PBMC/5.25M7 | - | luciferase / cell fusion | 92US657 R5 CLADE B | 165 µM |
| Cc1ccc(CNC(=O)c2nc3n(c(=O)c2O)C(C)CCCC3N(C)C(=O)C(=O)N(C)C)cc1F | EC50 | HeLa P4-2 | G140S/Q148H | single cycle | - | 0.002 µM |
| Cc1cc(S(N)(=O)=O)ccc1NC(=O)COc1ccc(Cl)cc1C(=O)c1cc(C#N)cc(C#N)c1 | EC50 | HeLa + HELA CD4+ | RT-Y181C | β-galactosidase | HXB2 | <0.01 µM |
| Nc1ccn([C@@H]2OC[C@@H](CO)[C@H]2O)c(=O)n1 | EC50 | MT-4 | - | cytopathic effect / MTT | - | >100 µM |
| CCOCn1c(Cc2ccc(C)cc2)c(CC)c(=O)[nH]c1=O | EC50 | MT-4 | - | MTT | IIIB | 5.3 µM |
| CO[C@]1(C)CC[C@@H](N(C)C(=O)C(=O)N(C)C)c2nc(C(=O)NCc3ccc(F)c(C)c3)c(O)c(=O)n2C1 | EC50 | HeLa P4-2 | Y143R | single cycle | - | 0.002 µM |
| Cc1ccnc2c1NC(=O)c1cccnc1N2C1CC1 | EC50 | MT-4 | L100I | MTT | - | 2.233 µM |
| COC(=O)[C@H]1OC(C)(C)O[C@@H]1C(=O)Nc1cccc2c(C(=O)C(=O)N3CCN(C(=O)c4ccccc4)C[C@H]3C)c[nH]c12 | EC50 | HeLa | - | luciferase / reporter gene | - | <1 µM |
| O=C(C(=O)N1CCN(C(=O)c2ccccc2)CC1)c1c[nH]c2cc(F)cc(F)c12 | EC50 | HeLa + HELA CD4+/CCR5 | - | luciferase | - | <10 µM |
| N#Cc1cc(Cl)cc(Oc2c(Br)ccc(CC(=O)Nc3ccc(S(N)(=O)=O)cc3Cl)c2F)c1 | EC50 | MT-4 | Y181C | - | - | 0.0014 µM |
| CCc1c(Cc2ccc(OC)c(OC)c2)n(COCC2CC2)c(=O)[nH]c1=O | EC50 | MT-4 | K103N/Y181C | MTT | A17 | >100 µM |
| Cc1cc(Cn2c(C(=O)c3cc(Cl)cc(Cl)c3)c(C(C)C)c(=O)[nH]c2=O)cc(C)n1 | EC50 | MT-4 | - | cytopathic effect / MTT | - | 0.0028 µg/mL |
| Cc1cc2cn[nH]c2cc1NC(=O)COc1ccc(Cl)cc1C(=O)c1cccc(C#N)c1 | EC50 | HeLa + HELA CD4+ | RT-V106A | β-galactosidase | HXB2 | 0.101–1 µM |
| CC(C)=CCOc1cc(NC(=S)c2ccsc2C)ccc1Cl | EC50 | CEM + CEM-SS | RT-Y181C | cytopathic effect / XTT | E BPTU-resistant (RT Y181C) | 0.2 µM |
| COc1cnc(-c2cnc(N)nc2)c2[nH]cc(C(=O)C(=O)N3CCC(=C(C#N)c4ccccc4)CC3)c12 | EC50 | HeLa | - | luciferase | - | <1 µM |
| C[C@@H]1CN(C(=O)c2ccccc2)CCN1C(=O)C(=O)c1c[nH]c2c(NC(=O)Nc3ccc(C#N)cc3)cccc12 | EC50 | HeLa | - | luciferase / reporter gene | - | <1 µM |
| COc1cnc(-c2ccc(S(N)(=O)=O)cc2)c2[nH]cc(C(=O)C(=O)N3CCC(=C(C#N)c4ccccc4)CC3)c12 | EC50 | HeLa | - | luciferase | - | <1 µM |
| CCc1c(Cc2ccc(C)cc2)n(COCCCc2ccccc2)c(=O)[nH]c1=O | EC50 | MT-4 | K103R/V179D/P225H | MTT | EFVR | >43 µM |
| O=C(C(=O)N1CCN(C(=O)c2ccccc2)CC1)c1c[nH]c2c(Br)cccc12 | EC50 | HeLa + HELA CD4+/CCR5 | - | luciferase | - | <10 µM |
| CCc1c(C(=O)c2cc(C)cc(C)c2)n(Cc2ccncc2)c(=O)[nH]c1=O | EC50 | MT-4 | RT-Y181C | - | NNRTI-resistant (RT Y181C) | 0.01–0.041 µM |
| Cc1cc(/C=C/C#N)cc(C)c1Oc1ccnc(Nc2ccc(CN3CCN(S(=O)(=O)N(C)C)CC3)cc2)n1 | EC50 | MT-4 | - | MTT | IIIB | 0.0045 µM |
| COc1cnc(-n2cncn2)c2[nH]cc(C(=O)C(=O)N3CCC(=C(Br)c4ccccc4)CC3)c12 | EC50 | HeLa | - | luciferase | - | <1 µM |
| Cc1cc(S(N)(=O)=O)ccc1NC(=O)COc1ccc(Cl)cc1C(=O)c1cc(F)cc(C(F)(F)F)c1 | EC50 | HeLa + HELA CD4+ | RT-G190A | β-galactosidase | HXB2 | <0.01 µM |
| CC(C)c1c(C(=O)c2cc(C(F)(F)F)cc(C(F)(F)F)c2)n(Cc2ccncc2)c(=O)[nH]c1=O | EC50 | MT-4 | - | cytopathic effect / MTT | - | 1.867 µg/mL |
| Cc1cc(S(N)(=O)=O)ccc1NC(=O)COc1ccc(Cl)cc1C(=O)c1cc(Cl)cc(Cl)c1 | EC50 | MT-4 | RT-Y181C | cytopathic effect / propidium iodide | Nevirapine-resistant (RT Y181C) | <0.01 µM |
| CC[C@H]1COC[C@H](N(C)C(=O)C(=O)N(C)C)c2nc(C(=O)NCc3ccc(F)cc3)c(O)c(=O)n21 | EC50 | HeLa P4-2 | Y143R | single cycle | - | 0.002 µM |
| CN1N=C(N)c2cn([C@@H]3O[C@H](COP(=O)(O)O)[C@@H](O)[C@H]3O)c3ncnc1c23 | EC50 | CEM + CEM-SS | - | cytopathic effect / XTT | 205 | >2.9 µM |
| Nc1cccc(C(=O)N2CCN(C(=O)C(=O)c3c[nH]c4ccccc34)CC2)c1 | EC50 | HeLa + HELA CD4+/CCR5 | - | luciferase | - | <10 µM |
| COC(=O)CCCNC(=O)Nc1cccc2c(C(=O)C(=O)N3CCN(C(=O)c4ccccc4)C[C@H]3C)c[nH]c12 | EC50 | HeLa | - | luciferase / reporter gene | - | <1 µM |
| O=C(C(=O)N1CCN(C(=O)c2ccc(F)cc2)CC1)c1c[nH]c2ccccc12 | EC50 | MT-2 | - | RT activity | BRU | <10 µM |
| CC(C)=CCOc1cc(NC(=S)c2ccsc2C)ccc1Cl | EC50 | CEM + CEM-SS | RT-K101E | p24 | NL4-3 | 0.006 µM |
| C#CC(=C1CCN(C(=O)C(=O)c2c[nH]c3c(OC)ncc(OC)c23)CC1)c1ccccc1 | EC50 | HeLa | - | luciferase | - | <1 µM |
| Cc1cc(C#N)cc(C(=O)c2cc(Cl)ccc2OCC(=O)Nc2ccc(S(N)(=O)=O)nc2C)c1 | EC50 | HeLa + HELA CD4+ | RT-P225H | β-galactosidase | HXB2 | <0.01 µM |
| CCc1c(Cc2ccc(C)cc2)n(COCc2ccccc2)c(=O)[nH]c1=O | EC50 | MT-4 | - | MTT | IIIB | 1.1 µM |
| Cc1cc(Cn2c(C(=O)c3cc(Cl)cc(Cl)c3)c(C(C)C)c(=O)[nH]c2=O)ccn1 | EC50 | MT-4 | - | cytopathic effect / MTT | - | 0.003 µg/mL |
| O=C(COc1ccc(Cl)cc1C(=O)c1ccccc1)Nc1ccc(-n2cncn2)cc1 | EC50 | MT-4 | - | cytopathic effect / propidium iodide | IIIB | 0.011–0.1 µM |
| Nc1ccc(C(=O)N2CCN(C(=O)C(=O)c3c[nH]c4cccc(F)c34)CC2)cc1 | EC50 | HeLa + HELA CD4+/CCR5 | - | luciferase | - | <10 µM |
| Cc1cc(C)cc(C(=O)c2cc(Cl)ccc2OCC(=O)Nc2ccc(S(N)(=O)=O)cc2C)c1 | EC50 | HeLa + HELA CD4+ | RT-P225H | β-galactosidase | HXB2 | <0.01 µM |
| COc1ncc(OC)c2c(C(=O)C(=O)N3CCC(=C(c4ccccc4)c4cccc(F)c4)CC3)c[nH]c12 | EC50 | HeLa | - | luciferase | - | <1 µM |

Repeating the final 5 entries:

{"structure": "Cc1cc(Cn2c(C(=O)c3cc(Cl)cc(Cl)c3)c(C(C)C)c(=O)[nH]c2=O)ccn1", "endpoint": "EC50", "cell line": "MT-4", "read by": "cytopathic effect / MTT", "result": "0.003 µg/mL"}
{"structure": "O=C(COc1ccc(Cl)cc1C(=O)c1ccccc1)Nc1ccc(-n2cncn2)cc1", "endpoint": "EC50", "cell line": "MT-4", "read by": "cytopathic effect / propidium iodide", "strain or isolate": "IIIB", "result": "0.011–0.1 µM"}
{"structure": "Nc1ccc(C(=O)N2CCN(C(=O)C(=O)c3c[nH]c4cccc(F)c34)CC2)cc1", "endpoint": "EC50", "cell line": "HeLa + HELA CD4+/CCR5", "read by": "luciferase", "result": "<10 µM"}
{"structure": "Cc1cc(C)cc(C(=O)c2cc(Cl)ccc2OCC(=O)Nc2ccc(S(N)(=O)=O)cc2C)c1", "endpoint": "EC50", "cell line": "HeLa + HELA CD4+", "changes": "RT-P225H", "read by": "β-galactosidase", "strain or isolate": "HXB2", "result": "<0.01 µM"}
{"structure": "COc1ncc(OC)c2c(C(=O)C(=O)N3CCC(=C(c4ccccc4)c4cccc(F)c4)CC3)c[nH]c12", "endpoint": "EC50", "cell line": "HeLa", "read by": "luciferase", "result": "<1 µM"}